# Potato spindle tuber viroid, loop 6: variant abundance in plants

Region: loop 6 of PSTVd (intermediate strain), upper and lower strand joined, each 5' to 3', the first 5 letters being the upper strand, closing pairs included. Wild type: UGACCGCGAG. Varied positions (N): UNNNCGNNNG.

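Three N. benthamiana plants were inoculated with the whole mutant pool. Samples came from the inoculated region at 5 days, the leaf margin at 10 and upper systemic leaves at 12.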

Numbers give reads per thousand; 0 = not seen among the reads, higher = more abundant. Each site shows the three plants. "Pool" is the share in the plasmid pool used as inoculum, on the same scale. The inoculated region was read from the minus strand, the other sites from the plus strand. Samples held 36,220 to 57,551 reads, so the smallest values rest on one or two reads. Wild type was 20.7 per thousand in the pool and the most common sequence in every sample (inoculated region 195, 198, 203; leaf margin 629, 591, 734; systemic leaves 942, 870, 868). Sequences that differ at fixed positions probably stem from PCR or sequencing errors, and defective variants can be carried along by functional ones.

| sequence | pool | inoculated region | leaf margin | systemic leaves |
|---|---|---|---|---|
| UAUCCGCUAG | 0.0784 | 0.243 / 0.0898 / 0.0738 | 0 / 0 / 0 | 0 / 0 / 0 |
| UAUCCGCUCG | 0.288 | 0.0695 / 0.108 / 0.0553 | 0 / 0 / 0 | 0 / 0 / 0 |
| UAUCCGCUGG | 0.248 | 0.122 / 0.0180 / 0.0553 | 0 / 0 / 0 | 0 / 0 / 0 |
| UAUCCGCUUG | 0.275 | 0.104 / 0.126 / 0.0184 | 0.0276 / 0 / 0 | 0 / 0 / 0 |
| UAUCCGGAAG | 0.105 | 0.0521 / 0.0898 / 0.0369 | 0 / 0 / 0 | 0 / 0 / 0 |
| UAUCCGGACG | 0.196 | 0.156 / 0.0719 / 0.111 | 0 / 0 / 0 | 0 / 0 / 0 |
| UAUCCGGAGG | 0.196 | 0.139 / 0.144 / 0.184 | 0 / 0 / 0 | 0 / 0 / 0 |
| UAUCCGGAGU | 0.0131 | 0 / 0 / 0 | 0 / 0 / 0 | 0 / 0 / 0 |
| UAUCCGGAUG | 0.248 | 0.139 / 0.0539 / 0.0738 | 0 / 0 / 0 | 0 / 0 / 0 |
| UAUCCGGCAG | 0.183 | 0.0869 / 0.0719 / 0.0738 | 0 / 0 / 0 | 0 / 0 / 0 |
| UAUCCGGCCG | 0.157 | 0.0695 / 0.144 / 0.166 | 0 / 0 / 0 | 0 / 0 / 0 |
| UAUCCGGCGG | 0.196 | 0.0695 / 0.198 / 0.0738 | 0.0276 / 0 / 0 | 0 / 0 / 0 |
| UAUCCGGCUG | 0.275 | 0.104 / 0.126 / 0.0553 | 0.0276 / 0 / 0.0232 | 0 / 0 / 0 |
| UAUCCGGGAG | 0.157 | 0.0521 / 0.0898 / 0.203 | 0.0276 / 0 / 0.0232 | 0 / 0 / 0 |
| UAUCCGGGCG | 0.196 | 0.209 / 0.126 / 0.0553 | 0 / 0 / 0 | 0 / 0 / 0 |
| UAUCCGGGGG | 0.131 | 0.156 / 0.126 / 0.0922 | 0 / 0 / 0.0232 | 0 / 0 / 0 |
| UAUCCGGGUG | 0.209 | 0.156 / 0.0539 / 0.148 | 0 / 0 / 0 | 0 / 0 / 0 |
| UAUCCGGUAG | 0.183 | 0.0869 / 0.0898 / 0.0922 | 0 / 0 / 0.0232 | 0 / 0 / 0 |
| UAUCCGGUCG | 0.275 | 0.104 / 0.0719 / 0.129 | 0 / 0 / 0 | 0 / 0 / 0 |
| UAUCCGGUGG | 0.261 | 0.139 / 0.144 / 0.0922 | 0 / 0 / 0 | 0 / 0 / 0 |
| UAUCCGGUUG | 0.288 | 0.104 / 0.0719 / 0.0369 | 0 / 0 / 0.0232 | 0 / 0 / 0.0205 |
| UAUCCGUAAG | 0.209 | 0.174 / 0.162 / 0.0553 | 0 / 0 / 0.0232 | 0 / 0 / 0 |
| UAUCCGUACG | 0.275 | 0.122 / 0.0539 / 0.0553 | 0.0276 / 0 / 0 | 0 / 0 / 0 |
| UAUCCGUAGG | 0.157 | 0.156 / 0.144 / 0.0184 | 0.0276 / 0 / 0 | 0 / 0 / 0 |
| UAUCCGUAUG | 0.379 | 0.122 / 0.198 / 0.0922 | 0.387 / 0 / 0 | 0 / 0 / 0.0410 |
| UAUCCGUCAG | 0.327 | 0.0695 / 0.108 / 0.0553 | 0.0276 / 0 / 0.0232 | 0 / 0 / 0 |
| UAUCCGUCCG | 0.170 | 0.0521 / 0.0898 / 0.111 | 0 / 0 / 0 | 0 / 0 / 0 |
| UAUCCGUCGG | 0.235 | 0.0695 / 0.0898 / 0.0922 | 0 / 0 / 0 | 0 / 0 / 0 |
| UAUCCGUCUG | 0.288 | 0.122 / 0.108 / 0.129 | 0 / 0 / 0 | 0 / 0 / 0.0205 |
| UAUCCGUGAG | 0.209 | 0.156 / 0.180 / 0.0922 | 0.0276 / 0 / 0 | 0 / 0 / 0 |
| UAUCCGUGCG | 0.222 | 0.0869 / 0.108 / 0.0553 | 0.0276 / 0 / 0 | 0 / 0 / 0 |
| UAUCCGUGGG | 0.118 | 0.122 / 0.162 / 0.0369 | 0.0276 / 0 / 0 | 0 / 0 / 0 |
| UAUCCGUGUG | 0.288 | 0.122 / 0.0719 / 0.0922 | 0.0276 / 0 / 0 | 0 / 0 / 0 |
| UAUCCGUUAG | 0.366 | 0.156 / 0.0719 / 0.0738 | 0 / 0 / 0.0464 | 0 / 0 / 0 |
| UAUCCGUUCG | 0.222 | 0.139 / 0.108 / 0.0738 | 0.0276 / 0 / 0 | 0 / 0 / 0 |
| UAUCCGUUGG | 0.314 | 0.122 / 0.126 / 0.0369 | 0 / 0 / 0 | 0 / 0 / 0 |
| UAUCCGUUUG | 0.445 | 0.0695 / 0.234 / 0.129 | 0 / 0 / 0 | 0 / 0 / 0 |
| UAUCCUCGAG | 0.0131 | 0.0174 / 0 / 0 | 0 / 0 / 0 | 0 / 0 / 0 |
| UAUGCGAAAG | 0.170 | 0.139 / 0.0539 / 0.0553 | 0.0276 / 0 / 0.0232 | 0 / 0 / 0 |
| UAUGCGAACG | 0.222 | 0.0869 / 0.126 / 0.0922 | 0 / 0 / 0 | 0 / 0 / 0 |
| UAUGCGAAGG | 0.209 | 0.0695 / 0.0359 / 0.0738 | 0 / 0 / 0 | 0 / 0 / 0 |
| UAUGCGAAUG | 0.327 | 0.0869 / 0.198 / 0.129 | 0 / 0.0252 / 0 | 0 / 0 / 0 |
| UAUGCGACAG | 0.301 | 0.139 / 0.0180 / 0.0738 | 0.0276 / 0 / 0.0232 | 0 / 0 / 0 |
| UAUGCGACCG | 0.196 | 0.0348 / 0.0539 / 0.129 | 0 / 0 / 0 | 0 / 0 / 0 |
| UAUGCGACGG | 0.183 | 0.104 / 0.0719 / 0.0553 | 0 / 0 / 0.0232 | 0 / 0 / 0 |
| UAUGCGACUG | 0.275 | 0.0695 / 0.0719 / 0.0184 | 0 / 0 / 0.0232 | 0 / 0 / 0 |
| UAUGCGAGAG | 0.144 | 0.104 / 0.0539 / 0.129 | 0.0276 / 0 / 0.0464 | 0 / 0 / 0 |
| UAUGCGAGCG | 0.170 | 0.0521 / 0.0719 / 0.0738 | 0 / 0 / 0 | 0 / 0 / 0 |
| UAUGCGAGGG | 0.261 | 0.104 / 0.0898 / 0.0369 | 0.0276 / 0 / 0.0464 | 0 / 0 / 0 |
| UAUGCGAGUG | 0.209 | 0.0695 / 0.126 / 0.111 | 0.0276 / 0 / 0.0232 | 0 / 0 / 0 |
| UAUGCGAUAG | 0.261 | 0.226 / 0.144 / 0.0369 | 0 / 0 / 0.232 | 0 / 0 / 0 |
| UAUGCGAUCG | 0.340 | 0.0348 / 0.0898 / 0.203 | 0.0276 / 0 / 0 | 0 / 0 / 0 |
| UAUGCGAUGG | 0.183 | 0.104 / 0.0898 / 0.0184 | 0.0276 / 0 / 0.0232 | 0 / 0 / 0 |
| UAUGCGAUUG | 0.418 | 0.139 / 0.108 / 0.129 | 0 / 0 / 0 | 0 / 0 / 0.0205 |
| UAUGCGCAAG | 0.0784 | 0.122 / 0.108 / 0.221 | 0 / 0 / 0 | 0 / 0 / 0 |
| UAUGCGCACG | 0.222 | 0.0869 / 0.0898 / 0.0369 | 0 / 0 / 0.0232 | 0 / 0 / 0 |
| UAUGCGCAGG | 0.157 | 0.122 / 0.0359 / 0.148 | 0 / 0 / 0 | 0 / 0 / 0 |
| UAUGCGCAUG | 0.118 | 0.0869 / 0.0539 / 0.0738 | 0 / 0 / 0.0232 | 0 / 0 / 0 |
| UAUGCGCCAG | 0.105 | 0.139 / 0.0719 / 0.0738 | 0 / 0 / 0 | 0 / 0 / 0 |
| UAUGCGCCCG | 0.275 | 0.156 / 0.0359 / 0.184 | 0 / 0 / 0.0232 | 0 / 0 / 0.0205 |

The first 5 entries again:

| sequence | pool | inoculated region | leaf margin | systemic leaves |
|---|---|---|---|---|
| UAUCCGCUAG | 0.0784 | 0.243 / 0.0898 / 0.0738 | 0 / 0 / 0 | 0 / 0 / 0 |
| UAUCCGCUCG | 0.288 | 0.0695 / 0.108 / 0.0553 | 0 / 0 / 0 | 0 / 0 / 0 |
| UAUCCGCUGG | 0.248 | 0.122 / 0.0180 / 0.0553 | 0 / 0 / 0 | 0 / 0 / 0 |
| UAUCCGCUUG | 0.275 | 0.104 / 0.126 / 0.0184 | 0.0276 / 0 / 0 | 0 / 0 / 0 |
| UAUCCGGAAG | 0.105 | 0.0521 / 0.0898 / 0.0369 | 0 / 0 / 0 | 0 / 0 / 0 |

The measurements come from Wu et al. 2024 (doi:10.1371/journal.ppat.1012142).